PubChem BioAssay AID1259414, Drosophila RNAi Screening Center – 2018
The screen tested about 24,000 reagents; below is a random part of those with a known target gene and a result. In the full data, about 1,210 (5%) were called active. 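Inactive calls also include excluded dsRNAs with several or no targets, genes unexpressed in JW18, and well A1, regardless of score.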 Entries without a mark were called inactive.

Test: 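Fly genes that alter Wolbachia amount inside host cells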 (primary screen)
System: Drosophila JW18 cells infected with Wolbachia
Reagents: long dsRNA against Drosophila genes, 0.25 µg dsRNA per well of a 384-well plate
Time to read-out: 5 days
Challenge: cells persistently infected with Wolbachia before knock-down; no added drug
Read-out: 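Imaged fluorescence in situ signal for Wolbachia 23S rRNA per DAPI-counted host cell, given as a robust z-score within each plate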
Scale: Wolbachia per cell robust z: higher = more Wolbachia per host cell than the plate typical
Active means: 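Active if absolute robust z reaches 1.5 in two or more of three replicates, leaving out multi- or no-target dsRNAs, genes unexpressed in JW18 and A1 wells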

| Target gene | dsRNA | Wolbachia per cell robust z, rep 1 | Wolbachia per cell robust z, rep 2 | Wolbachia per cell robust z, rep 3 |
| --- | --- | --- | --- | --- |
| CG31467 | DRSC16048 | 0.173 | 0.111 | -0.105 |
| CG31467 | DRSC28533 | -3.07 (active) | -3.37 | -3.28 |
| GlcAT-P | DRSC10603 | -1.22 | -0.121 | 0.265 |
| GlcAT-P | DRSC10604 | 0.62 | -0.76 | -0.0195 |
| CG17385 | DRSC06664 | 0.876 | 1.58 | -1.01 |
| CG17385 | DRSC26999 | -2.01 | 0.791 | 1 |
| CG8299 | DRSC07139 | 0.703 | 1.16 | 0.247 |
| CG8299 | DRSC25580 | -1.37 | -0.77 | -0.923 |
| Amyrel | DRSC05920 | -4.29 | -0.581 | -0.228 |
| CG18095 | DRSC01948 | -0.622 | -1.73 | -1.12 |
| UGP | DRSC10411 | 0.505 | -0.192 | 0.212 |
| d4 | DRSC04881 | 0.91 | -0.874 | -0.794 |
| d4 | DRSC22674 | 0.551 | 0.246 | -0.347 |
| d4 | DRSC26581 | 0.341 | 0.447 | -0.0187 |
| Sin3A | DRSC07552 | 1.6 | -0.464 | 1.3 |
| Sin3A | DRSC37642 | -0.697 | -1.02 | -0.734 |
| CG32444 | DRSC11677 | -1.52 | 0.384 | 0.62 |
| CG1275 | DRSC08294 | 0.219 | 0.195 | 0.985 |
| Arl1 | DRSC09667 | 0.504 | -0.929 | 0.0839 |
| Cpr49Af | DRSC07202 | -0.621 | -0.0919 | -0.571 |
| Cpr49Af | DRSC24397 | -1.8 | 0.41 | 1.35 |
| Ipk1 | DRSC04235 | 0.021 | 0.421 | 0.282 |
| Ipk1 | DRSC04236 | 0.495 | -0.378 | 0.192 |
| Ipk1 | DRSC04237 | 0.332 | 0.899 | 0.771 |
| CG42658 | DRSC41387 | 0.0517 | -0.706 | -1.83 |
| igl | DRSC07631 | -1.02 | 0.305 | 0.201 |
| igl | DRSC28961 | -0.485 | 0.391 | -7.62 |
| slpr | DRSC18225 | 2.49 | 1.4 | 1.04 |
| slpr | DRSC23321 | 0.707 | 0.624 | 1.14 |
| CG10581 | DRSC11623 | -0.149 | -1.97 | 1.25 |
| CG15382 | DRSC00397 | -0.392 | -0.252 | 0.446 |
| CG15382 | DRSC24805 | 0.555 | -0.0945 | -18.8 |
| Not1 | DRSC06787 | 1.25 | -0.559 | 0.644 |
| Not1 | DRSC06794 | -1.71 | -0.256 | 0.743 |
| CG34163 | DRSC38917 | 0.324 | -0.516 | -4.05 |
| CG16772 | DRSC02516 | -0.19 | -5.4 | -3.53 |
| CG16772 | DRSC25947 | 0.661 | -0.306 | 0.375 |
| CG31809 | DRSC01561 | -0.246 | 0.248 | -0.738 |
| Ssrp | DRSC04658 | -0.133 | -6.02 | -2.17 |
| Ssrp | DRSC29959 | 0.539 | -0.775 | -8.24 |
| Ssrp | DRSC38960 | 3.42 | 2.9 | 1.27 |
| Ir60a | DRSC04212 | 0.0664 | 0.162 | -0.696 |
| CG14868 | DRSC14991 | 0.119 | -0.0395 | -1.05 |
| CG14868 | DRSC27707 | -0.142 (active) | 2.81 | 2.03 |
| Naus | DRSC06011 | -0.699 | 0.614 | -1.17 |
| Naus | DRSC06469 | 0.896 | 1.66 | 1.22 |
| Naus | DRSC23606 | 0.0474 | -1.67 | 1.15 |
| CG17065 | DRSC20544 | 0.482 | 0.0697 | -6.34 |
| CG17065 | DRSC26822 | -0.092 | -0.186 | -0.433 |
| CG43072 | DRSC11688 | 0.603 | 1.06 | 0.376 |
| CG12608 | DRSC19472 | -2.5 | 0.605 | 0.117 |
| Or49b | DRSC07494 | 0.243 | 0.493 | 0.501 |
| beat-Ic | DRSC01524 | 1.12 | 0.67 | 1.11 |
| beat-Ic | DRSC03491 | 0.657 | -1.73 | 0.958 |
| beat-Ic | DRSC23508 | -0.23 | 1.04 | -7.92 |
| beat-Ic | DRSC38988 | 1.91 | 1.4 | 0.631 |
| CG13876 | DRSC08346 | -0.0843 | 0.248 | 0.345 |
| ave | DRSC05502 | -0.032 | -1.65 | -0.285 |
| ave | DRSC28562 | -0.264 | -1.27 | -2.59 |
| msl-2 | DRSC00829 | 1.07 | 0.884 | 1.36 |
| msl-2 | DRSC28208 | 0.348 | -0.0313 | 0.487 |
| CG11367 | DRSC22434 | 0.222 | 1.36 | 0.313 |
| Pms2 | DRSC07511 | 0.278 | 0.986 | -0.202 |
| CG13003 | DRSC19522 | -3.33 | 0.128 | 0.0511 |
| Nuf2 | DRSC03123 | 0.0662 | 0.46 | 0.248 |
| CG8159 | DRSC16392 | 0.23 | 1.1 | 0.175 |
| CG8159 | DRSC27425 | 0.333 | -1.34 | 0.0953 |
| Ythdc1 | DRSC08141 | -1.36 | -0.695 | -1.43 |
| Mcr | DRSC03366 | -0.723 | -0.817 | 0.834 |
| Srrm234 | DRSC07955 | 0.829 | -0.0961 | 0.666 |
| Srrm234 | DRSC08606 | -0.33 | 0.329 | 1.32 |
| Ilp1 | DRSC10174 | -3.8 | -1.4 | -4.52 |
| CG12691 | DRSC17880 | -4.25 | -0.39 | 0.542 |
| Hus1-like | DRSC12353 | 0.465 | -2.29 | 0.0375 |
| CG5013 | DRSC15695 | 0.243 | 1.4 | 0.927 |
| Vang | DRSC07570 | 1.46 | 1.01 | 0.783 |
| S-Lap3 | DRSC10956 | -1.99 | 0.0765 | 0.123 |
| S-Lap3 | DRSC23958 | -0.632 | 0.288 | -1.67 |
| Trp1 | DRSC03465 | -0.195 | 0.0835 | -0.254 |
| Trp1 | DRSC24685 | -0.317 | -1.33 | -1.43 |
| CG17121 | DRSC15176 | -0.453 | 0.452 | -0.273 |
| Rpp25 | DRSC05002 | -0.666 | 0.159 | -0.267 |
| AgmNAT | DRSC18072 | -0.381 | 1.18 | 0.0987 |
| gsb | DRSC04692 | -0.488 | 0.347 | 0.0792 |
| gsb | DRSC25821 | 0.491 | 1.3 | -0.169 |
| Tpl94D | DRSC13593 | 0.804 | 1.09 | 0.723 |
| CG7120 | DRSC10773 | 0.347 | 0.751 | 1.58 |
